Compound potency records, mixed from different reports. Data source: NIAID ChemDB in PubChem.

Shared fields: growth or infection tests; agent: HIV-1; cells: MT-4; read-out: EC50

Conditions beyond the fields shown may differ between rows. Blank or dashed fields: not listed here. ECn is the concentration giving n% inhibition of infection, replication or growth.

compound | strain | mutations | read by | value
Nc1[nH]c(=S)nc2c1C(c1ccc([N+](=O)[O-])cc1)c1c(nc(=S)[nH]c1N)O2 |  |  | p24 | <5 µg/mL
CC(C)=CCC[C@]1(C)C=Cc2c(ccc3c2C(=O)C(=O)C(CC2=CC(=O)c4ccccc4C2=O)=C3O)O1 | RF |  | cytopathic effect / XTT | >50 µM
N#Cc1cc(Cl)cc(Oc2cc(F)cc(OCc3[nH]nc4ncccc34)c2)c1 |  |  | p24 | <20 µM
CN1C(=O)[C@]2(C[C@@H]2c2ccccc2)c2cc(Cl)ccc21 | IIIB |  | MTT | >10.24 µg/mL
COc1c(Cl)cc(C(=CCCCCN[C@@H]2CC[C@]3(C)C4CC[C@@]5(C)C(CC[C@@H]5C(C)CCCC(C)C)C4CC[C@H]3C2)c2cc(Cl)c(OC)c(C(=O)O)c2)cc1C(=O)O | RF |  | cytopathic effect / MTT | >200 µM
Clc1ccccc1-c1nnc2sc(CC34CC5CC(CC(C5)C3)C4)nn12 | IIIB |  | cytopathic effect / MTT | >12.4 µg/mL
CC1(C)CC=C(c2cn(-c3nccc(C(=O)NC4CCC(N5CC6CCC(C5)O6)CC4)n3)c3ccc(F)c([C@H](OC(C)(C)C)C(=O)O)c23)CC1 | NL4-3 | T97A/Y143R | luminescence | 0.0044 µM
CCOC(NC(=S)Nc1ccccn1)C(=O)c1ccccc1Cl | IIIB |  |  | 67.05 µM
C[C@]12CCC3C(CC[C@H]4C[C@@H](CCC=C(c5cc(Cl)c(O)c(C(=O)O)c5)c5cc(Cl)c(O)c(C(=O)O)c5)CC[C@]34C)C1CC[C@@H]2CCC=C(c1cc(Cl)c(O)c(C(=O)O)c1)c1cc(Cl)c(O)c(C(=O)O)c1 | IIIB |  | cytopathic effect / MTT | 20 µM
CNC(=O)c1cc(F)ccc1CNC(=O)c1nc(N(C)S(C)(=O)=O)c2cccnc2c1O |  |  | p24 | <5 µM
Nc1nc2c(ncn2[C@H]2CO[C@@H](CCP(=O)(O)O)O2)c(=O)[nH]1 |  |  | cytopathic effect | 6.8 µg/mL
O=C1Nc2ccc(F)cc2[C@@]12C[C@@H]2c1ccccc1 | IIIB |  | MTT | 0.92 µg/mL
CCS(=O)(=O)N(C)c1nc(C(=O)NCc2ccc(F)cc2C(=O)NC)c(O)c2ncccc12 |  |  | p24 | <5 µM
N#Cc1cc(Cl)cc(Oc2cc(Cl)cc(OCC(=O)NCC3CCS(=O)(=O)C3)c2)c1 |  |  | p24 | <20 µM
CC(C)CN(C[C@@H](O)[C@H](Cc1ccccc1)NC(=O)O[C@H]1CO[C@H]2OCC[C@H]21)S(=O)(=O)c1ccc2c(c1)OCO2 | NL4-3 (APV5) | L10F/M461/I50V/A71V/I84V/L90M | p24 | 0.032 µM
CC(C)C[C@H](NC(=O)[C@@H](NC(=O)[C@H](Cc1c[nH]c2ccccc12)NC(=O)CCCCC(=O)Nc1ccn([C@H]2CC[C@@H](CO)O2)c(=O)n1)C(C)C)[C@@H](O)CC(=O)NC(Cc1ccccc1)c1ccccc1 |  |  | syncytia | 10 µM
CCOCn1c(Cc2ccccc2)c(C(C)C)c(=O)[nH]c1=O | IIIB |  | cytopathic effect / MTT | 0.02 µM
O=C(c1cc(-c2cc(Br)cc(OC(F)(F)F)c2)n(-c2ccnc(C(F)(F)F)c2)n1)N1CCSC1 | NL4-3 | K103N/Y181C | luminescence | 3.3 µM
O=C1Nc2ccc(Cl)cc2Sc2c1[nH]c1ccccc21 | IIIB |  | cytopathic effect / MTT | ≥22 µM
NC(=O)c1cc(F)ccc1CNC(=O)c1nc(N2CCCCS2(=O)=O)c2cccnc2c1O |  |  | p24 | <5 µM
Brc1ccccc1-c1nnc2sc(CC34CC5CC(CC(C5)C3)C4)nn12 | IIIB |  | cytopathic effect / MTT | >24.7 µg/mL
O=c1[nH]c(=S)[nH]c2c1C(c1ccc([N+](=O)[O-])cc1)c1c(nc(=S)[nH]c1Cl)O2 |  |  | p24 | <5 µg/mL
O=C1CN(C(=O)c2cc(-c3cc(Br)cc(OC(F)(F)F)c3)n(-c3ccncc3)n2)CN1 | NL4-3 |  | luminescence | 0.112 µM
NCNC(=O)CCC(=O)O | IIIB |  | cytopathic effect / MTT | >100 µg/mL
O=C1CSC(c2ccccc2Cl)N1Cc1ccco1 | IIIB |  | cytopathic effect | 6.43 µM
Brc1cccc(-c2nnc3sc(CC45CC6CC(CC(C6)C4)C5)nn23)c1 | IIIB |  | cytopathic effect / MTT | >125 µg/mL
C[C@]12CCC3C(CC[C@H]4C[C@@H](CC=C(c5cc(Cl)c(O)c(C(=O)O)c5)c5cc(Cl)c(O)c(C(=O)O)c5)CC[C@]34C)C1CC[C@@H]2CC=C(c1cc(Cl)c(O)c(C(=O)O)c1)c1cc(Cl)c(O)c(C(=O)O)c1 | RF |  | cytopathic effect / MTT | 12 µM
CCOC(=O)c1[nH]c2ccccc2c1S(=O)(=O)c1cc(Cl)ccc1N | IIIB |  | cytopathic effect / MTT | 2.2 µM
CC(=O)N[C@H]1C[C@H](n2cc(C)c(=O)[nH]c2=O)O[C@@H]1CO | IIIB |  | ELISA / antigen | >10 µM
Nc1ncnc2c1ncn2[C@H]1C=C[C@@H](CO)[C@@H]1CO | MN |  | XTT | 4.6 µg/mL
CS(=O)(=O)c1ccc(NC(=O)COc2cc(Cl)cc(Oc3cc(Cl)cc(C#N)c3)c2)c(Cl)c1 |  |  | p24 | <20 µM
Nc1ccn([C@H]2CC[C@@H](CO)O2)c(=O)n1 |  |  | syncytia | 0.1 µM
Nc1ncnc2c1ncn2[C@H]1C[C@@H](CO)O1 |  |  | plaque count | 0.25 µg/mL
O=C1CSC(c2c(F)cccc2F)N1Cc1ccco1 | IIIB |  | cytopathic effect | 2.88 µM
CCOC(=O)c1[nH]c2ccccc2c1S(=O)(=O)c1ccccc1N | IIIB |  | cytopathic effect / MTT | >200 µM
CC(=O)SCCOP(=O)(OCCSC(C)=O)OC[C@@H]1C=C[C@H](n2cc(C)c(=O)[nH]c2=O)O1 |  |  |  | 0.016 µM
COc1c(Cl)cc(C(=CCCNC(=O)C[C@H]2CC[C@]3(C)C4CC[C@@]5(C)C(CC[C@@H]5CC(=O)NCCC=C(c5cc(Cl)c(OC)c(C(=O)O)c5)c5cc(Cl)c(OC)c(C(=O)O)c5)C4CC[C@H]3C2)c2cc(Cl)c(OC)c(C(=O)O)c2)cc1C(=O)O | IIIB |  | cytopathic effect / MTT | 47 µM
NCCCC(N)CC(N)=O | IIIB |  | cytopathic effect / MTT | >100 µg/mL
Cc1nc2ccccc2c(-c2cc(F)c3c(c2C)CCCO3)c1[C@H](OC(C)(C)C)C(=O)O | NL4-3 | T124S/T125A | luminescence | 0.028 µM
Nc1ncnc2c1ncn2[C@@H]1O[C@H](CO)[C@H]1O |  |  | plaque count | 5.5 µg/mL
Cc1cn([C@H]2C[C@H](N=[N+]=[N-])[C@@H](CO)O2)c(=O)[nH]c1=O | IIIB | E138K | MTT | 0.035 µM
O=C1CSC(c2ccc(-c3cccc4ccccc34)cc2)N1Cc1ccco1 | IIIB |  | cytopathic effect | 5.53 µM
O=C(c1ccccc1Cl)C(O)NC(=S)Nc1ccccn1 | IIIB |  |  | 118 µM
Cc1cn([C@H]2C[C@H](NC(=O)C(F)(F)F)[C@@H](CO)O2)c(=O)[nH]c1=O | IIIB |  | ELISA / antigen | >1 µM
Cc1ccccc1-c1nnc2sc(CC34CC5CC(CC(C5)C3)C4)nn12 | IIIB |  | cytopathic effect / MTT | >11.5 µg/mL
C=C(C)COCn1c(CC2CCCc3ccccc32)c(CC)c(=O)[nH]c1=O | N119 RT-Y181C NNRTI-resistant | RT-Y181C | cytopathic effect / MTT | >100 µM
Cn1c(COc2ccc(Cl)c(Oc3cc(Cl)cc(C#N)c3)c2)nc2ccccc21 |  |  | p24 | <20 µM
CCNC(=O)c1cc(F)ccc1CNC(=O)c1nc(N2CCCCS2(=O)=O)c2cccnc2c1O |  |  | p24 | <5 µM

The last 3 rows once more:

compound	strain	mutations	read by	value
C=C(C)COCn1c(CC2CCCc3ccccc32)c(CC)c(=O)[nH]c1=O	N119 RT-Y181C NNRTI-resistant	RT-Y181C	cytopathic effect / MTT	>100 µM
Cn1c(COc2ccc(Cl)c(Oc3cc(Cl)cc(C#N)c3)c2)nc2ccccc21			p24	<20 µM
CCNC(=O)c1cc(F)ccc1CNC(=O)c1nc(N2CCCCS2(=O)=O)c2cccnc2c1O			p24	<5 µM